Experimental data published in patent US20020173475A1 (priority 2001, published 2002).

System: translation of the CAT reporter protein (p2CAT RNA) in HeLa cell extract
Settings: for ability to inhibit translation: peptides added at 20, 40 and 60 μM, no concentration stated for the result; for inhibition of translation of the CAT reporter protein: HeLa cell extract

Row | Sequence | ability to inhibit translation | inhibition of translation of the CAT reporter protein (peptide at 60 μM) | inhibition of translation of the CAT reporter protein (peptide at 40 and 60 μM) | inhibition of translation of the CAT reporter protein (peptide at 40 μM)
1 | AALEAKICHQIEQQQGDQ | inhibitory activity was also lost | – | – | –
2 | AALEAKICHQIEYQFGDF | diminished | inhibited | – | –
3 | AALEAKICHQIEYYFGDQ | diminished | – | inhibited | –
4 | AALEAKICHQIEYYQGDF | diminished | – | – | –
5 | AALEAQICQQIEYYFGDF | – | – | effective at inhibiting translation | –
6 | AALQAKICHQIQYYFGQF | – | – | lost the ability to inhibit translation | –
7 | QQQEAKICHQIEYYFGDF | – | inhibitory | – | slightly inhibitory

Read-outs that look alike come from different tables or passages of the source.
